Data on one molecule can be found in US20150299276A1, “α-conotoxin peptide, pharmaceutical composition and use thereof” (published 2015).

Some results are limits rather than exact numbers.

The test deals with mouse muscle type nAChR (α1β1δε) (mouse), P04756. As to the kind of experiment: cell-based or functional assay.

GCCSDPPCRNKHPDLCG [α-conotoxin TxIB/Txd4(G)]: the IC50 (half-blocking dose) of ACh-gated current, Xenopus oocytes is > 10 µM.
